Patent US8487103B2 (Roche Palo Alto LLC, priority 2009, dated 2013)

Molecular target: HCV polymerase (NS5B570n-Con1) (Hepatitis C virus genotype 1b, UniProt Q9WMX2)
Experiment: HCV NS5B RNA Polymerase Activity
Type: biochemical, HCV Con1 strain
Settings: read-out: IC50 HCV Polymerase Activity; NS5B570n-Con1, cIRES RNA template, tritiated UTP incorporation
Experimental: The enzymatic activity of HCV polymerase (NS5B570n-Con1) was measured as the incorporation of radiolabeled nucleotide monophosphates into acid insoluble RNA products. Unincorporated radiolabeled substrate was removed by filtration and scintillant was added to the washed and dried filter plate containing radiolabeled RNA product. The amount of RNA product generated by NS5B570-Con1 at the end of the reaction was directly proportional to the amount of light emitted by the scintillant.
The N-terminal 6-histidine tagged HCV polymerase, derived from HCV Con1 strain, genotype 1b (NS5B570n-Con1) contains a 21 amino acid deletion at the C-terminus relative to the full-length HCV polymerase and was purified from E. coli strain BL21(DE) pLysS. The construct, containing the coding sequence of HCV NS5B Con1 (GenBank accession number AJ242654) was inserted into the plasmid construct pET 17b, downstream of a T7 promoter expression cassette and transformed into E. coli. […]
The amount of light emitted from the scintillant was converted to counts per minute (CPM) on a Topcount® plate reader (Perkin-Elmer, Energy Range: Low, Efficiency Mode Normal, Count Time: 1 min, Background Subtract: none, Cross talk reduction: Off).
Data was analyzed in Excel® (Microsoft) and ActivityBase® (Idbs®). […] All data was expressed as a percentage of the positive control. […]

COc1c(C(C)(C)C)cc(-c2cn(C)c(=O)[nH]c2=O)c2ncc(N3CC[C@H](CNS(C)(=O)=O)C3)cc12
IC50: 6.6 nM
